For this data set, the target named is T1, OmpR-His6 (UniProt P74982).
T1 sequence (looked up): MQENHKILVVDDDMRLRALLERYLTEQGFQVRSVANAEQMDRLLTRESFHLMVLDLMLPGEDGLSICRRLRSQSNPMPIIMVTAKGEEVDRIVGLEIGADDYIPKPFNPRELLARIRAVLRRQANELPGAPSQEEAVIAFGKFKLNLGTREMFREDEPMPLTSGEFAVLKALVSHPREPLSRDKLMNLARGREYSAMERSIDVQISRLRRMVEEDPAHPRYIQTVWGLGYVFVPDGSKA
Description: EMSA. The following applies: 20 mM Mg2+, recombinant protein, residues 1-239, protein details: N-terminal His6, probe letters rebuilt from the primers and the genome. (In general: In EMSA bound probe runs differently from free probe, usually more slowly.)

Tags and fusion partners may be left off the protein sequences shown.

The record followed here is paper PMC6158557.

Consider “ATTCGACCCGGTGGTTTACTGGATCAATCTGCGACGGGGAAAGCCATCCGTCTGCAAACAGAGGCTCATGGCCTGGTTACTCGGGAAGATGTTGCCATTCACCTGAGTCAGATGGTCGAAGATCCCGCAACCTATCATCAGATTTATGCACTCGTCGATCCCGGATTAGTTCGCGAAGTAAAAATAAATTAACAATAAATATGTCTTGATGTAACACTGAATCATGATTGATAATGCTTATCATATTGATATCGGTTATCATTACCTTGTTTACAATATGGATAAACAGTTGAACAAAGCACCCACAATGAATG (double strand) [F2 (phem-1, OBS-1)]”, for which, for the setting “complexes appear from 0.65 uM OmpR, F1, F3 or F4 and 16S rDNA tested alongside”, the binding result is given as “binds”.

With “CCGGTTCAATTAGCATTAACTCGATTTAAAATCAGTGATGGAATGACATTTAGCTAAGGCTCTACTCCATCACTGATCTAAATACATCAATCCACTCCATTCACACCACTCATCTTATTTCTGCCTAAATCATTCAGCTTACAAATTACTAATGAAAAGCAAGACATTGGAATAACAACTAATTAAGTCCAGGGTTGAAACCAATAGCGCATGGGGATGATAATCATTATCAACTTGCTCATAATATCAACTCAAAGAAAGTATCTTATGCACAAAGCAACATCCATAACGCAAAATGCAACC (double strand) [F4 (phem-2, OBS-2)]”, the binding result (complexes observed at 1.31 uM OmpR (F2 at 0.65 uM)) is “binds”.
